Measurements published in patent publication US20200339511A1, “Substituted indoline derivatives as dengue viral replication inhibitors” (priority 2016, published 2020).

Experiments:
Format in all cases: cell-based, Dengue virus
DENV-2 strain 16681 = assay: Tetravalent RT-qPCR assay, serotype 2; conditions: RT-qPCR serotype 2 16681, Protocol A
Procedure: (§1) Tetravalent reverse transcriptase quantitative-PCR (RT-qPCR) assay The antiviral activity of the compounds of the invention was tested against DENV-1 strain TC974#666 (NCPV), DENV-2 strain 16681, DENV-3 strain H87 (NCPV) and DENV-4 strain H241 (NCPV) in a RT-qPCR assay. Therefore, Vero cells were infected with either DENV-1, or -2, or -3, or -4 in the presence or absence of test compounds. At day 3 post-infection, the cells were lysed and cell lysates were used to prepare cDNA of both a viral target (the 3′UTR of DENV; Table 2) and a cellular reference gene (β-actin, Table 2). Subsequently, a duplex real time PCR was performed on a Lightcycler480 instrument. The generated Cp value is inversely proportional to the amount of RNA expression of these targets. Inhibition of DENV replication by a test compound results in a shift of Cp's for the 3′UTR gene. On the other hand, if a test compound is toxic to the cells, a similar effect on β-actin expression will be observed. The comparative ΔΔCp method is used to calculate EC50, which is based on the relative gene expression of the target gene (3′UTR) normalized with the cellular housekeeping gene (β-actin). In addition, CC50 values are determined based on the Cp values acquired for the housekeeping gene β-actin.
(§2) The culture medium consisted of minimal essential medium supplemented with 2% of heat-inactivated fetal calf serum, 0.04% gentamycin (50mg/mL) and 2 mM of L-glutamine. Vero cells, obtained from ECACC, were suspended in culture medium and 75 μL/well was added in 96-well plates (10000 cells/well), which already contain the antiviral compounds. […] In addition, each plate contains wells which are assigned as virus controls (containing cells and virus in the absence of compound) and cell controls (containing cells in the absence of virus and compound). Once the cells were added in the plates, the plates were incubated in a fully humidified incubator (37° C., 5% CO2) until the next day. Dengue viruses serotype-1, 2, 3 and 4 were diluted in order to obtain a Cp of ˜22-24 in the assay. Therefore, 25 μL of virus suspension was added to all the wells containing test compound and to the wells assigned as virus control. In parallel, 25 μL of culture medium was added to the cell controls. Next, the plates were incubated for 3 days in a fully humidified incubator (37° C., 5% CO2). After 3 days, the supernatant was removed from the wells and the cells were washed twice with ice-cold PBS (˜100 μL). The cell pellets within the 96-well plates were stored at −80° C. for at least 1 day. Next, RNA was extracted using the Cells-to-CT™ lysis kit, according to the manufacturer's guideline (Life Technologies). The cell lysates can be stored at −80° C. or immediately used in the reverse transcription step.
(§3) In preparation of the reverse transcription step, mix A (table 3A) was prepared and 7.57 μL/well was dispensed in a 96-well plate. After addition of 5 μL of the cell lysates, a five minute denaturation step at 75° C. was performed (table 3B). Afterwards, 7.43 μL of mix B was added (table 3C) and the reverse transcription step was initiated (table 3D) to generate cDNA.
(§4) Finally, a RT-qPCR mix was prepared, mix C (table 4A), and 22.02 μL/well was dispensed in 96-well LightCycler qPCR plates to which 3μL of cDNA was added and the qPCR was performed according to the conditions in table 4B on a LightCycler 480.
(§5) Using the LightCycler software and an in-house LIMS system, dose response curves for each compound were calculated and the half maximal effective concentration (EC50) and the half maximal cytotoxic concentration (CC50) were determined (Tables 5-8).

DENV-1 strain TC974#666 = assay: Tetravalent RT-qPCR assay, serotype 1; conditions: RT-qPCR serotype 1 TC974#666, Protocol A
Procedure: as §1, §2, §3, §4, §5

DENV-3 strain H87 = assay: Tetravalent RT-qPCR assay, serotype 3; conditions: RT-qPCR serotype 3 H87, Protocol A
Procedure: as §1, §2, §3, §4, §5

DENV-2 16681 strain = assay: DENV-2 antiviral assay (eGFP-labeled virus in Vero cells); conditions: SI=CC50/EC50, DENV-2 antiviral assay
Procedure: The antiviral activity of all the compounds of the invention was tested the against DENV-2 16681 strain which was labeled with enhanced green fluorescent protein (eGPF). The culture medium consists of minimal essential medium supplemented with 2% of heat-inactivated fetal calf serum, 0.04% gentamycin (50 mg/mL) and 2 mM of L-glutamine. Vero cells, obtained from ECACC, were suspended in culture medium and 25 μL was added to 384-well plates (2500 cells/well), which already contain the antiviral compounds. Typically, these plates contain a 5-fold serial dilution of 9 dilution steps of the test compound at 200 times the final concentration in 100% DMSO (200 nL). […] Finally, each plate contains wells which are assigned as virus controls (containing cells and virus in the absence of compound), cell controls (containing cells in the absence of virus and compound) and medium controls (containing medium in the absence of cells, virus and compounds). To the wells assigned as medium control, 25 μL of culture medium was added instead of Vero cells. Once the cells were added to the plates, the plates were incubated for 30 minutes at room temperature to allow the cells to distribute evenly within the wells. Next, the plates were incubated in a fully humidified incubator (37° C., 5% CO2) until the next day. Then, DENV-2 strain 16681, labeled with eGFP, was added at a multiplicity of infection (MOI) of 0.5. Therefore, 15 μL of virus suspension was added to all the wells containing test compound and to the wells assigned as virus control. In parallel, 15 μL of culture medium was added to the medium and cell controls. Next, the plates were incubated for 3 days in a fully humidified incubator (37° C., 5% CO2). At the day of the read out, the eGFP fluorescence was measured using an automated fluorescence microscope at 488 nm (blue laser). Using an in-house LIMS system, inhibition dose response curves for each compound were calculated and the half maximal effective concentration (EC50) was determined. Therefore, the percent inhibition (I) for every test concentration is calculated using the following formula: I=100*(ST-SCC)/(SVC-SCC), ST, SCC and SVC are the amount of eGFP signal in the test compound, cell control and virus control wells, respectively. The EC50 represents the concentration of a compound at which the virus replication is inhibited with 50%, as measured by a 50% reduction of the eGFP fluorescent intensity compared to the virus control. The EC50 is calculated using linear interpolation (Table 1).

DENV-4 strain H241 = assay: Tetravalent RT-qPCR assay, serotype 4; conditions: RT-qPCR serotype 4 H241, Protocol A
Procedure: as §1, §2, §3, §4, §5

Row | SMILES | SI (DENV-2 16681 strain) | also measured
1 | COc1cc(NC(C(=O)N2CCc3ccc(C(F)(F)F)cc32)c2ccc(Cl)cc2)cc(OCCO)c1 (single isomer, unassigned) [Compound 4A, 2-(4-chlorophenyl)-2-((3-(2-hydroxyethoxy)-5-methoxyphenyl)amino)-1-(6-(trifluoromethyl)indolin-1-yl)ethanone] | 3878 | SI (DENV-2 strain 16681): 894; SI (DENV-1 strain TC974#666): 1270; SI (DENV-3 strain H87): 179; SI (DENV-4 strain H241): 11
2 | COc1cc(NC(C(=O)N2CCc3ccc(C(F)(F)F)cc32)c2ccc(Cl)cc2F)cc(OCCO)c1 (single isomer, unassigned) [Compound 2B, 2-(4-chloro-2-fluorophenyl)-2-((3-(2-hydroxyethoxy)-5-methoxyphenyl)amino)-1-(6-(trifluoromethyl)indolin-1-yl)ethanone] | 3750 | SI (DENV-2 strain 16681): 1880; SI (DENV-1 strain TC974#666): 2670; SI (DENV-3 strain H87): 156; SI (DENV-4 strain H241): 33
3 | COc1cc(NC(C(=O)N2CCc3ccc(OC(F)(F)F)cc32)c2ccc(Cl)cc2)cc(OCCO)c1 (racemic) [Compound 3, 2-(4-chlorophenyl)-2-((3-(2-hydroxyethoxy)-5-methoxyphenyl)amino)-1-(6-(trifluoromethoxy)indolin-1-yl)ethanone] | 1760 | 
4 | COc1cc(NC(C(=O)N2CCc3ccc(C(F)(F)F)cc32)c2ccc(Cl)cc2F)cc(OCCO)c1 (single isomer, unassigned) [Compound 2A, 2-(4-chloro-2-fluorophenyl)-2-((3-(2-hydroxyethoxy)-5-methoxyphenyl)amino)-1-(6-(trifluoromethyl)indolin-1-yl)ethanone] | 46 | 
5 | COc1cc(NC(C(=O)N2CCc3ccc(C(F)(F)F)cc32)c2ccc(Cl)cc2OC)cc(OCCO)c1 (racemic) [Compound 1, 2-(4-chloro-2-methoxyphenyl)-2-((3-(2-hydroxyethoxy)-5-methoxyphenyl)amino)-1-(6-(trifluoromethyl)indolin-1-yl)ethanone] | 2070 | 
6 | COc1cc(NC(C(=O)N2CCc3ccc(C(F)(F)F)cc32)c2ccc(Cl)cc2)cc(OCCO)c1 (single isomer, unassigned) [Compound 4B, 2-(4-chlorophenyl)-2-((3-(2-hydroxyethoxy)-5-methoxyphenyl)amino)-1-(6-(trifluoromethyl)indolin-1-yl)ethanone] | 11 | SI (DENV-2 strain 16681): 17; SI (DENV-1 strain TC974#666): >4.6; SI (DENV-3 strain H87): 7.6
7 | COc1cc(NC(C(=O)N2CCc3cc(OC)c(OC(F)(F)F)cc32)c2ccc(Cl)cc2)cc(OCCO)c1 (racemic) [Compound 13, 2-(4-chlorophenyl)-2-((3-(2-hydroxyethoxy)-5-methoxyphenyl)amino)-1-(5-methoxy-6-(trifluoromethoxy)indolin-1-yl)ethanone] | 2630 | 
8 | COc1cc(NC(C(=O)N2CCc3ccc(C(F)(F)F)cc32)c2ccc(Cl)cc2)cc(OCCO)c1 (racemic) [Compound 4, 2-(4-chlorophenyl)-2-((3-(2-hydroxyethoxy)-5-methoxyphenyl)amino)-1-(6-(trifluoromethyl)indolin-1-yl)ethanone] | 1440 | 
9 | COc1cc(NC(C(=O)N2CCc3cc(OC)c(C(F)(F)F)cc32)c2ccc(Cl)cc2OC)cc(OCCO)c1 (single isomer, unassigned) [Compound 11A, 2-(4-chloro-2-methoxyphenyl)-2-((3-(2-hydroxyethoxy)-5-methoxyphenyl)amino)-1-(5-methoxy-6-(trifluoromethyl)indolin-1-yl)ethanone] | >94 | 
10 | COc1cc(NC(C(=O)N2CCc3ccc(C(F)(F)F)cc32)c2ccc(Cl)cc2F)cc(OCCO)c1 (racemic) [Compound 2, 2-(4-chloro-2-fluorophenyl)-2-((3-(2-hydroxyethoxy)-5-methoxyphenyl)amino)-1-(6-(trifluoromethyl)indolin-1-yl)ethanone] | 1400 | 
11 | COc1cc(NC(C(=O)N2CCc3ccc(OC(F)(F)F)cc32)c2ccc(Cl)cc2OC)cc(OCCO)c1 (racemic) [Compound 5, 2-(4-chloro-2-methoxyphenyl)-2-((3-(2-hydroxyethoxy)-5-methoxyphenyl)amino)-1-(6-(trifluoromethoxy)indolin-1-yl)ethanone] | 2040 | 
12 | COc1cc(NC(C(=O)N2CCc3cc(OC)c(C(F)(F)F)cc32)c2ccc(Cl)cc2)cc(OCCO)c1 (single isomer, unassigned) [Compound 7A, 2-(4-chlorophenyl)-2-((3-(2-hydroxyethoxy)-5-methoxyphenyl)amino)-1-(5-methoxy-6-(trifluoromethyl)indolin-1-yl)ethanone] | 26 | 
13 | COc1cc(NC(C(=O)N2CCc3c(C)cc(C(F)(F)F)cc32)c2ccc(Cl)cc2)cc(OCCO)c1 (single isomer, unassigned) [Compound 10A, 2-(4-chlorophenyl)-2-((3-(2-hydroxyethoxy)-5-methoxy-phenyl)amino)-1-(4-methyl-6-(trifluoromethyl)indolin-1-yl)ethanone] | 8.4 | 
14 | COc1cc(NC(C(=O)N2CCc3cc(OC)c(OC(F)(F)F)cc32)c2ccc(Cl)cc2)cc(OCCO)c1 (single isomer, unassigned) [Compound 13B, 2-(4-chlorophenyl)-2-((3-(2-hydroxyethoxy)-5-methoxyphenyl)amino)-1-(5-methoxy-6-(trifluoromethoxy)indolin-1-yl)ethanone] | >123 | 
15 | COc1cc(NC(C(=O)N2CCc3ccc(OC(F)(F)F)cc32)c2ccc(Cl)cc2OC)cc(OCCO)c1 (single isomer, unassigned) [Compound 5B, 2-(4-chloro-2-methoxyphenyl)-2-((3-(2-hydroxyethoxy)-5-methoxyphenyl)amino)-1-(6-(trifluoromethoxy)indolin-1-yl)ethanone] | 19 | 
